PubChem BioAssay AID1224833 | University of Georgia | 2016
In all, the deposit lists about 12,000 reagents; shown is a part drawn at random. In the full data, about 5,600 (46%) got an active call. 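Active calls cover z-scores past 1 in both directions, so they include lowered as well as raised rotavirus replication.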 Reagent sequences are not shown.

Aim: 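Human genes whose knock-down alters rotavirus replication in monkey cells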 (primary screen)
Cell system: monkey MA104 kidney cells
Reagents: siRNA pool against human genes, 50 nM
Timing: 48 h knock-down before infection; read 24 h after infection
Treatment: infection with rotavirus strain RV3 two days after transfection; infectious dose for this stage not given
Measured: 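z-score of rotavirus antigen signal per well, from a fluorescent immunoassay, relative to non-targeting control wells on the same plate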
Scale: z-score vs non-targeting control: higher = more rotavirus replication than with non-targeting control
Hit rule: In these data the active calls have z-score vs non-targeting control at about -1 or lower, or at about 1 or higher
Calls: active = z-score beyond 1 either way; inactive = z-score within 1 of zero

gene symbol | z-score vs non-targeting control | Call
SCRIB (GeneID 23513) | 0.611 | inactive
PLA2G1B (GeneID 5319) | -2.54 | active
IDH1 (GeneID 3417) | 1.02 | active
FKBP11 (GeneID 51303) | 0.648 | inactive
MYOG (GeneID 4656) | 0.773 | inactive
WDR5B (GeneID 54554) | -0.218 | inactive
RLN3 (GeneID 117579) | 0.804 | inactive
GZF1 (GeneID 64412) | -1.56 | active
ANKRD12 (GeneID 23253) | -2.02 | active
CRADD (GeneID 8738) | -0.894 | inactive
BMF (GeneID 90427) | -0.64 | inactive
OMD (GeneID 4958) | 0.202 | inactive
BTG1 (GeneID 694) | 0.643 | inactive
CLEC4G (GeneID 339390) | -0.716 | inactive
OGDHL (GeneID 55753) | -1.54 | active
TAF7 (GeneID 6879) | -1.65 | active
PSMC3IP (GeneID 29893) | -1.68 | active
NEXMIF (GeneID 340533) | 0.485 | inactive
NFATC2 (GeneID 4773) | -0.777 | inactive
CRYBB3 (GeneID 1417) | 0.0026 | inactive
ADAM17 (GeneID 6868) | -2.97 | active
OR6C68 (GeneID 403284) | -0.417 | inactive
BIRC5 (GeneID 332) | 0.574 | inactive
ZNF625 (GeneID 90589) | -1.81 | active
SYNE1 (GeneID 23345) | -0.162 | inactive
FAM24A (GeneID 118670) | -0.552 | inactive
SRI (GeneID 6717) | -0.521 | inactive
EPS8L1 (GeneID 54869) | 0.201 | inactive

3 of these entries, reformatted:
{"gene symbol": "ADAM17 (GeneID 6868)", "z-score vs non-targeting control": -2.97, "Call": "active"}
{"gene symbol": "OR6C68 (GeneID 403284)", "z-score vs non-targeting control": -0.417, "Call": "inactive"}
{"gene symbol": "BIRC5 (GeneID 332)", "z-score vs non-targeting control": 0.574, "Call": "inactive"}

The results go on:
gene symbol | z-score vs non-targeting control | Call
STXBP4 (GeneID 252983) | -1.32 | active
MXRA8 (GeneID 54587) | -1.55 | active
MED8 (GeneID 112950) | 0.777 | inactive
BRD10 (GeneID 158358) | 0.481 | inactive
ATL2 (GeneID 64225) | -0.207 | inactive
RAB5B (GeneID 5869) | -1.15 | active
LCE5A (GeneID 254910) | 0.0904 | inactive
SEMA3E (GeneID 9723) | 0.284 | inactive
LRRC63 (GeneID 220416) | 1.48 | active
SPATA22 (GeneID 84690) | 0.679 | inactive
RWDD3 (GeneID 25950) | 0.559 | inactive
ANXA1 (GeneID 301) | -1.81 | active
TAF10 (GeneID 6881) | 0.991 | inactive
SNAPIN (GeneID 23557) | -0.293 | inactive
RSL24D1 (GeneID 51187) | -0.474 | inactive
CCDC62 (GeneID 84660) | 0.891 | inactive
TAPBPL (GeneID 55080) | -0.723 | inactive
SLCO1B7 (GeneID 338821) | -2.18 | active
PHACTR3 (GeneID 116154) | -0.715 | inactive
CXCR3 (GeneID 2833) | 1.21 | active
PTGS2 (GeneID 5743) | -1.65 | active
GNG13 (GeneID 51764) | -0.235 | inactive
PCDHA10 (GeneID 56139) | -1.01 | active
GMPS (GeneID 8833) | -2.16 | active
SMIM29 (GeneID 221491) | 1.06 | active
RPS27A (GeneID 6233) | -4.02 | active
ANKRD16 (GeneID 54522) | -1.19 | active
AMDHD1 (GeneID 144193) | -0.897 | inactive
SAP30L (GeneID 79685) | -0.689 | inactive
OR8K5 (GeneID 219453) | -1.06 | active
RDH16 (GeneID 8608) | 2.74 | active
CEACAM5 (GeneID 1048) | 0.193 | inactive
FLACC1 (GeneID 130540) | 1.3 | active
CD86 (GeneID 942) | 0.964 | inactive
TULP3 (GeneID 7289) | -0.912 | inactive
TATDN1 (GeneID 83940) | -0.441 | inactive
S100A3 (GeneID 6274) | -0.569 | inactive
SEMG1 (GeneID 6406) | -0.816 | inactive
MRPL28 (GeneID 10573) | -1.09 | active
KRT12 (GeneID 3859) | -0.825 | inactive
POLR3C (GeneID 10623) | -0.893 | inactive
RND1 (GeneID 27289) | -0.637 | inactive
MSH3 (GeneID 4437) | 0.576 | inactive
RGS17 (GeneID 26575) | -1.01 | active
LAX1 (GeneID 54900) | 1.32 | active
GFM2 (GeneID 84340) | -0.605 | inactive
CLDN11 (GeneID 5010) | -0.24 | inactive
